Results of unrelated studies side by side (data: NIAID ChemDB).

Shared fields: whole-cell or culture tests

Zones are inhibition diameters on agar. Blank or dashed fields: not listed here. Lines come from different laboratories, so protocols vary. Fold resistance: result on the changed form divided by that on wild type. a–b is a range or a potency band. ECn: concentration that inhibits the pathogen or its effect by n%. Inhibition is in % at the dose shown (toxicity tests: loss of growth or viability). A number after MIC or MFC names an inhibition level or a share of isolates.

| structure | strain | organism | mutations | dose | cells | method | endpoint | result |
|---|---|---|---|---|---|---|---|---|
| Nc1ncnc2c1ncn2[C@@H]1C[C@H](N)[C@@H](O)[C@H]1O | Halonen | Measles virus |  |  | CV-1 | cytopathic effect | EC50 | 0.4 µg/mL |
| Cc1ccc(CCCOc2cc(C)c(-c3noc(C(F)(F)F)n3)c(C)c2)nn1 |  | Enterovirus |  |  | HeLa | cytopathic effect | EC50 | 0.033–0.659 µg/mL |
| Cc1ccc(-n2cc(C(C)(C)O)nn2)cc1C | URM 3627 | Candida parapsilosis |  | 2048 µg/mL |  | broth dilution | inhibition | 0% |
| CC1CCC(C(=O)N(c2cc(C#CC(C)(C)C)sc2C(=O)O)C2CCC(O)CC2)CC1 | H77 (GT1a) | Hepatitis C virus | L419M |  | Huh7 | luciferase | fold resistance | 50.9 |
| O=C1C(c2[nH]c3ccc(S(=O)(=O)O)cc3c2O)=Nc2ccc(S(=O)(=O)O)cc21 |  | Herpes simplex virus |  | 10 µg/mL | Human amnion AV3 cells | cytopathic effect | inhibition | 0% |
| O=C(N[C@@H](C(=O)N1CCC[C@H]1c1ncc(-c2ccc(-c3ccc(-c4cnc([C@@H]5CCCN5C(=O)[C@H](NC(=O)C5CC5)c5ccccc5)s4)cc3)cc2)s1)c1ccccc1)C1CC1 | genotype 1b | Hepatitis C virus | Y93N+V153M+M202L+M265V |  | Huh7.5 | luciferase / reporter gene | fold resistance | 18217 |
| [N-]=[N+]=N[C@H]1C[C@@H](n2cnc3c(N)ncnc32)[C@H](O)[C@@H]1O |  | Measles virus |  |  | CV-1 | cytopathic effect | EC50 | 0.1 µg/mL |
| CC(=O)c1ccc(CCCOc2c(C)cc(-c3noc(C(F)F)n3)cc2C)nn1 |  | Enterovirus |  |  | HeLa | cytopathic effect | EC50 | 0.033–0.659 µg/mL |
| CCc1nc2ccc(C#N)cn2c1C(=O)NCc1ccc(N2CCN(c3ccc(OC(F)(F)F)cc3)[C@@H](C)C2)c(F)c1 |  | Mycobacterium avium |  | 0.11 µM |  | fluorescence | inhibition | 85% |
| C[C@@H](c1nc(-c2ccc(C#N)cc2)cs1)[C@](O)(Cn1cncn1)c1cc(F)ccc1F | VG IIa | Cryptococcus gattii |  |  |  | broth dilution | MIC50 | 0.031 µg/mL |
| CCc1ccc(CCCOc2ccc(-c3noc(C(F)(F)F)n3)c(C)c2)nn1 |  | Coxsackie virus |  |  | HeLa | cytopathic effect | EC50 | 0.033–0.659 µg/mL |
| O=S(=O)(O)CO | TYPE 3 | Adenovirus |  | 10 µg/mL | Human embryonic lung cells | cytopathic effect | inhibition | 0% |
| CS[C@H]1C[C@@H](n2cnc3cc4cncnc4cc32)[C@H](O)[C@@H]1O |  | Measles virus |  |  | CV-1 | neutral red | EC50 | 100 µg/mL |
| CCCc1ccc(CCCOc2cc(C)c(-c3noc(C4CC4)n3)c(C)c2)nn1 |  | Enterovirus |  |  | HeLa | cytopathic effect | EC50 | 0.033–0.659 µg/mL |
| O=S(=O)([O-])c1cc(NS(=O)(=O)c2ccccc2)c2c(S(=O)(=O)[O-])cc(S(=O)(=O)[O-])cc2c1 | TYPE 3 | Adenovirus |  | 5 µg/mL | Human amnion AV3 cells | cytopathic effect | inhibition | 0% |
| CC(C)(O)c1cn(-c2ccccc2)nn1 | URM 4818 | Candida parapsilosis |  | 2048 µg/mL |  | broth dilution | inhibition | 0% |
| Cc1cc(-c2noc(C(F)F)n2)cc(C)c1OCCCc1cccnn1 |  | Enterovirus |  |  | HeLa | cytopathic effect | EC50 | 0.033–0.659 µg/mL |
| Cc1ccc2c(c1)C(C=NNC(=O)N1c3ccccc3C=Cc3ccccc31)C(c1ccccc1)=N2 | MTCC-1782 | Aspergillus terreus |  | 750 µg/mL |  | agar diffusion | zone | 8 mm |
| CCOC(=O)c1ccc(OCCC2CCN(c3ccc(C)nn3)CC2)cc1 | A2#58 (ICAM-1 receptor group 50) | Rhinovirus |  |  | KB | neutral red | EC50 | 0.027 µM |
| Nc1nc2c(ncn2[C@H]2CC[C@@H](CO)O2)c(=O)[nH]1 |  | Duck hepatitis B virus |  |  | Primary duck hepatocytes |  | EC50 | 0.5 µM |
| Cc1cc(OCCCc2ccc(Cl)nn2)cc(C)c1-c1noc(C(F)(F)F)n1 |  | Coxsackie virus |  |  | HeLa | cytopathic effect | EC50 | 0.033–0.659 µg/mL |
| Nc1ncnc2c1ncn2[C@@H]1CC[C@@H](O)[C@H]1O | Halonen | Measles virus |  |  | CV-1 | cytopathic effect | EC50 | <0.1 µg/mL |
| O=C(NN1C(=O)CSC1C1C(c2ccccc2)=Nc2ccccc21)N1c2ccccc2C=Cc2ccccc21 | MTCC-3567 | Aspergillus oryzae |  | 750 µg/mL |  | agar diffusion | zone | 12 mm |
| Cc1ccn2c(C(=O)NCc3ccc(N4CCN(c5ccc(OC(F)(F)F)cc5)CC4)c(F)c3)c(C)nc2c1 |  | Mycobacterium avium |  | 0.023 µM |  | fluorescence | inhibition | 85% |
| O=C(Nc1ccc(S(=O)(=O)[O-])c2cccc(S(=O)(=O)[O-])c12)c1ccccc1 |  | Herpes simplex virus |  | 5 µg/mL | Human amnion AV3 cells | cytopathic effect | inhibition | 0% |
| Cc1nc2ccccn2c1C(=O)NCc1ccc(N2CCN(c3ccc(OC(F)(F)F)cc3)[C@@H](C)C2)c(F)c1.Cl |  | Mycobacterium avium |  | 0.0054 µM |  | fluorescence | inhibition | 85% |
| CCCCCCCCCCCCOC(=O)[C@]1(O)C[C@@H](O)[C@@H](O)[C@H](OC(=O)/C=C/c2ccc(O)c(O)c2)C1 | SLV 549 | Aspergillus nomius |  |  |  | absorbance | MIC50 | 1250 µg/mL |
| O=C(NN1C(=O)CSC1C1C(c2ccccc2)=Nc2ccc(Cl)cc21)N1c2ccccc2C=Cc2ccccc21 | MTCC-3567 | Aspergillus oryzae |  | 1000 µg/mL |  | agar diffusion | zone | 14 mm |
| O=C(Nc1ccc2cc(S(=O)(=O)[O-])cc(S(=O)(=O)[O-])c2c1)c1ccccc1 | TYPE 3 | Adenovirus |  | 50 µg/mL | Human embryonic lung cells | cytopathic effect | inhibition | 0% |
| CC(C)(O)c1cn(-c2cccc3ccccc23)nn1 | URM 4262 | Candida tropicalis |  | 2048 µg/mL |  |  | inhibition | 0% |
| COc1ccc(CCCOc2cc(C)c(-c3noc(C(F)F)n3)c(C)c2)nn1 |  | Coxsackie virus |  |  | HeLa | cytopathic effect | EC50 | 0.033–0.659 µg/mL |
| CO[C@H]1/C=C/O[C@@]2(C)Oc3c(C)c(O)c4c(O)c(c(/C=N/N5CCN(C6CCCC6)CC5)c(O)c4c3C2=O)NC(=O)/C(C)=C\C=C\[C@H](C)[C@H](O)[C@@H](C)[C@@H](O)[C@@H](C)[C@H](OC(C)=O)[C@@H]1C | 1023 | Mycobacterium avium intracellulare |  |  |  |  | MIC | 0.5 µg/mL |
| O=S(=O)(O)c1cc(O)c2c(O)c(N=Nc3ccccc3)c(S(=O)(=O)O)cc2c1 | TYPE 3 | Adenovirus |  | 5 µg/mL | Human amnion AV3 cells | cytopathic effect | inhibition | 0% |
| Cc1ccn2c(C(=O)NCc3cc(F)c(N4CCC(c5ccc(OC(F)(F)F)cc5)CC4)c(F)c3)c(C)nc2c1.Cl |  | Mycobacterium avium |  | 0.068 µM |  | fluorescence | inhibition | 85% |
| C/C=C/C/C=C/CCC(=O)[C@H]1O[C@H]1C(N)=O | UB1005/PEMR2.6 | Escherichia coli |  |  |  |  | MIC | 20 µg/mL |
| Nc1nc2c(ncn2COC(CO)CO)c(=O)[nH]1 | R56 | Human cytomegalovirus |  |  |  | virus yield | EC50 | <2.9 µM |
| Cc1cc(CCCOc2c(C)cc(-c3noc(C(F)(F)F)n3)cc2C)on1 | Isolate 2 | Rhinovirus |  |  | OHIO HELA-I | cytopathic effect / visual reading | EC50 | 0.02 µg/mL |
| CC(C)(O)c1cn(-c2ccc([N+](=O)[O-])cc2)nn1 | URM 3716 | Candida albicans |  | 2048 µg/mL |  | broth dilution | inhibition | 0% |
| Nc1c(S(=O)(=O)[O-])cc2cc(S(=O)(=O)[O-])ccc2c1O |  | Herpes simplex virus |  | 50 µg/mL | Human amnion AV3 cells | cytopathic effect | inhibition | 55% |
| CC(=O)c1ccc(CCCOc2cc(C)c(-c3noc(C(F)F)n3)c(C)c2)nn1 |  | Enterovirus |  |  | HeLa | cytopathic effect | EC50 | 0.033–0.659 µg/mL |
| CCC(CC)O[C@@H]1C=C(C(=O)O)C[C@H](N)[C@H]1NC(C)=O | Influenza A/Virginia/2/88R (H3N2) | Influenza A virus |  |  | MDCK | visual reading | EC50 | 0.01 µM |
| Nc1cc(S(=O)(=O)[O-])cc2cc(S(=O)(=O)[O-])ccc12 | TYPE 3 | Adenovirus |  | 10 µg/mL | Human embryonic lung cells | cytopathic effect | inhibition | 0% |
| OC[C@H]1O[C@@H](n2cnc3c(SCc4ccc(OC(F)(F)F)cc4)ncnc32)[C@H](O)[C@@H]1O | RH adenosine kinase-deficient | Toxoplasma gondii |  | 25 µM |  |  | inhibition | 2.4% |
| Nc1ncnc2c1ncn2[C@@H]1C=C[C@@H](O)[C@H]1O | SA | Measles virus |  |  | CV-1 | cytopathic effect | EC50 | 50 µg/mL |
| COc1ccn2nc(C)c(C(=O)NCc3ccc(N4CCC(c5ccc(OC(F)(F)F)cc5)CC4)c(F)c3)c2c1.Cl |  | Mycobacterium avium |  | 0.014 µM |  | fluorescence | inhibition | 85% |
| OC[C@H]1O[C@@H](n2cnc3c(SCc4ccc(Cl)cc4Cl)ncnc32)[C@H](O)[C@@H]1O | RH (WILD TYPE) | Toxoplasma gondii |  | 25 µM |  |  | inhibition | 65.5% |

4 of the rows above, restated:

structure | strain | organism | mutations | dose | cells | method | endpoint | result
O=C1C(c2[nH]c3ccc(S(=O)(=O)O)cc3c2O)=Nc2ccc(S(=O)(=O)O)cc21 |  | Herpes simplex virus |  | 10 µg/mL | Human amnion AV3 cells | cytopathic effect | inhibition | 0%
Cc1nc2ccccn2c1C(=O)NCc1ccc(N2CCN(c3ccc(OC(F)(F)F)cc3)[C@@H](C)C2)c(F)c1.Cl |  | Mycobacterium avium |  | 0.0054 µM |  | fluorescence | inhibition | 85%
Cc1cc(OCCCc2ccc(Cl)nn2)cc(C)c1-c1noc(C(F)(F)F)n1 |  | Coxsackie virus |  |  | HeLa | cytopathic effect | EC50 | 0.033–0.659 µg/mL
O=C(NN1C(=O)CSC1C1C(c2ccccc2)=Nc2ccc(Cl)cc21)N1c2ccccc2C=Cc2ccccc21 | MTCC-3567 | Aspergillus oryzae |  | 1000 µg/mL |  | agar diffusion | zone | 14 mm